This data set has as its system human serum protein. In words: Short-term (20 min) human serum protein adsorption on modified TiO2 sensors using OWLS. Particulars: for Serum protein adsorption: compared with unmodified TiO2 or PMP1-modified sensors.

Starred links: 1 amine or outer side, 2 acyl side, 3 side chain; linkers in the order of their positions; H or OH if unused. Non-standard residues stand in square brackets, D forms with d. Residues, ends and D or L forms follow the SMILES beside them. N(1S-Me-propyl)Gly = CC[C@H](C)NCC(=O)O; Dopa = N[C@@H](Cc1ccc(O)c(O)c1)C(=O)O; X1 = O=C(CN(CC(F)(F)F)[*:1])[*:2]; Nspe = C[C@H](NCC(=O)O)c1ccccc1; Nlys = NCCCCNCC(=O)O; Nme = COCCNCC(=O)O

Take `COCCN(CC(=O)N(CCOC)CC(=O)N(CCOC)CC(=O)N(CCOC)CC(=O)N(CCOC)CC(=O)N(CCOC)CC(=O)N(CCOC)CC(=O)N(CCOC)CC(=O)N(CCOC)CC(=O)N(CCOC)CC(=O)N(CCOC)CC(=O)N(CCOC)CC(=O)N(CCOC)CC(=O)N(CCOC)CC(=O)N(CCOC)CC(=O)N(CCOC)CC(=O)N(CCOC)CC(=O)N(CCOC)CC(=O)N(CCOC)CC(=O)N(CCOC)CC(=O)N[C@@H](Cc1ccc(O)c(O)c1)C(=O)N[C@@H](CCCCN)C(=O)N[C@@H](Cc1ccc(O)c(O)c1)C(=O)N[C@@H](CCCCN)C(=O)N[C@@H](Cc1ccc(O)c(O)c1)C(N)=O)C(C)=O` [PMP1, (Nme)20-(DOPA-Lys)2-DOPA] (Ac-[Nme][Nme][Nme][Nme][Nme][Nme][Nme][Nme][Nme][Nme][Nme][Nme][Nme][Nme][Nme][Nme][Nme][Nme][Nme][Nme][Dopa]K[Dopa]K[Dopa]-NH2; N-terminus and C-terminus assumed): where the note is “Table 7, human serum, 20 min, 37° C., OWLS, mean ± SD”, the “Adsorbed mass Serum” value turned out to be 15 ± 15 ng/cm^2.

Regarding `COCCN(CC(=O)N(CCOC)CC(=O)N(CCOC)CC(=O)N(CCOC)CC(=O)N(CCOC)CC(=O)N(CCOC)CC(=O)N(CCOC)CC(=O)N(CCOC)CC(=O)N(CCOC)CC(=O)N(CCOC)CC(=O)N(CC(=O)N[C@@H](Cc1ccc(O)c(O)c1)C(=O)N[C@@H](CCCCN)C(=O)N[C@@H](Cc1ccc(O)c(O)c1)C(=O)N[C@@H](CCCCN)C(=O)N[C@@H](Cc1ccc(O)c(O)c1)C(N)=O)CC(F)(F)F)C(=O)CN(CCOC)C(=O)CN(CCOC)C(=O)CN(CCOC)C(=O)CN(CCOC)C(=O)CN(CCOC)C(=O)CN(CCOC)C(=O)CN(CCOC)C(=O)CN(CCOC)C(=O)CN(CCOC)C(=O)CN(CCOC)C(=O)CN(C(=O)CN(C(=O)CN(CCCCN)C(=O)CN(C(=O)CN(C(=O)CN(CCCCN)C(=O)[C@@H]1CCCN1C(=O)CN(C(=O)CN(CCCCN)C(=O)CN(C(=O)CN(C(=O)CNCCCCN)[C@@H](C)c1ccccc1)[C@@H](C)c1ccccc1)[C@@H](C)c1ccccc1)[C@@H](C)c1ccccc1)[C@@H](C)c1ccccc1)[C@@H](C)c1ccccc1)[C@@H](C)c1ccccc1` [PMP1-AMP] (H-[Nlys][Nspe][Nspe][Nlys][Nspe]P[Nlys][Nspe][Nspe][Nlys][Nspe][Nspe][Nme][Nme][Nme][Nme][Nme][Nme][Nme][Nme][Nme][Nme][Nme][Nme][Nme][Nme][Nme][Nme][Nme][Nme][Nme][Nme][X1][Dopa]K[Dopa]K[Dopa]-NH2), the “Serum protein adsorption” value is “significantly lower than on unmodified TiO2 sensors”.

Turning to `CC[C@H](C)N(CC(=O)N(CCCCN)CC(=O)N(CC(=O)N(CC(=O)N(CCCCN)CC(=O)N(CC(=O)N(CC(=O)N(CCCCN)CC(=O)N(CC(=O)N(CC(=O)N(CCOC)CC(=O)N(CCOC)CC(=O)N(CCOC)CC(=O)N(CCOC)CC(=O)N(CCOC)CC(=O)N(CCOC)CC(=O)N(CCOC)CC(=O)N(CCOC)CC(=O)N(CCOC)CC(=O)N(CCOC)CC(=O)N(CCOC)CC(=O)N(CCOC)CC(=O)N(CCOC)CC(=O)N(CCOC)CC(=O)N(CCOC)CC(=O)N(CCOC)CC(=O)N(CCOC)CC(=O)N(CCOC)CC(=O)N(CCOC)CC(=O)N(CCOC)CC(=O)N(CC(=O)N[C@@H](Cc1ccc(O)c(O)c1)C(=O)N[C@@H](CCCCN)C(=O)N[C@@H](Cc1ccc(O)c(O)c1)C(=O)N[C@@H](CCCCN)C(=O)N[C@@H](Cc1ccc(O)c(O)c1)C(N)=O)CC(F)(F)F)[C@@H](C)CC)[C@@H](C)CC)[C@@H](C)CC)[C@@H](C)CC)[C@@H](C)CC)[C@@H](C)CC)C(=O)CN(C(=O)CNCCCCN)[C@@H](C)CC` [PMP1-C, reference compound] (H-[Nlys][N(1S-Me-propyl)Gly][N(1S-Me-propyl)Gly][Nlys][N(1S-Me-propyl)Gly][N(1S-Me-propyl)Gly][Nlys][N(1S-Me-propyl)Gly][N(1S-Me-propyl)Gly][Nlys][N(1S-Me-propyl)Gly][N(1S-Me-propyl)Gly][Nme][Nme][Nme][Nme][Nme][Nme][Nme][Nme][Nme][Nme][Nme][Nme][Nme][Nme][Nme][Nme][Nme][Nme][Nme][Nme][X1][Dopa]K[Dopa]K[Dopa]-NH2), the “Serum protein adsorption” value was “significantly lower than on unmodified TiO2 sensors”.

Source of the values: patent publication US10676509B2, “Surface-immobilized antimicrobial peptoids” (Northwestern University, priority 2008, dated 2020).
